The results in this text go back to paper PMC5098743.

For this experiment, the target named is LN40 Env wt (HIV-1).

Turning to “Soluble CD4 (from UniProt P01730) (receptor)”, the inhibition by sCD4 of infection of HeLa TZM-bl cells by Env+ pseudovirus (blocks Env with cell CD4): IC50 fold change from LN40wt was 1 fold.
